Laboratory results: PubChem BioAssay AID504761 (Drosophila RNAi Screening Center, 2011)

Screen: 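Fly genes whose silencing reduces dengue virus type 2 infection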 (primary screen)
Cells: D.Mel-2 cells from Drosophila
Knock-down reagent: long dsRNA against Drosophila genes
Treatment: infection with dengue virus type 2; dose and infection time not stated
Measured: 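Per well on two replicate plates, imaging gave the percent of cells positive for viral envelope protein, ranked by infection, and a nuclear count of cells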
Scale: infection score: higher = more virus-infected cells
Call rule: 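Very low infection ranking in both replicate wells (chance probability at most 0.065), then a retest showing infection dropped 1.5-fold or more at p below 0.05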
Meaning of the calls: active = confirmed: knock-down lowers infection; inactive = not picked or not confirmed
The deposit covers about 22,000 reagents; below is a random part of those with a known target gene and a result. Of all reagents, 116 (0.52%) were called active. 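Calls depend on retest data that are not deposited; infection was ranked per plate without normalising between plates; the unit of the infection score is not given.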 Names joined by + are all predicted targets of the reagent. Not all columns of the deposit are shown. Reagent sequences are not shown. The record does not give: the amount of reagent, the time to read-out.

no.	gene	amplicon	infection score, replicate 1	infection score, replicate 2	Call
1	AANATL7 (Arylalkylamine N-acetyltransferase-like 7)	DRSC18616	0.91	7.41	inactive
2	Rlb1	DRSC16826	3.19	3.44	inactive
3	Rlb1	DRSC27846	5.56	3.43	inactive
4	Nedd4	DRSC11234	6.35	2.31	inactive
5	Nedd4	DRSC21548	2.21	2.41	inactive
6	Nedd4	DRSC26365	16.6	21	inactive
7	Boh2 (Buddy of Hmr 2)	DRSC02777		21.4	inactive
8	CG13926	DRSC08395	6.16	2.26	inactive
9	CG17786	DRSC15270	8.03	3.05	inactive
10	CG17786	DRSC25378	4.1	3.21	inactive
11	Or85d (Odorant receptor 85d)	DRSC16767	23.6	31.6	inactive
12	Or85d (Odorant receptor 85d)	DRSC26656	6.25	0.74	inactive
13	hlk (hulk)	DRSC05021	4.96	12	inactive
14	hlk (hulk)	DRSC05022	18.2	16.3	inactive
15	hlk (hulk)	DRSC26150	5.12	2.37	inactive
16	scramb2 (scramblase 2)	DRSC08543	1.79	4.44	inactive
17	scramb2 (scramblase 2)	DRSC26609	2.07	1.65	inactive
18	CG6893	DRSC10742	6.21	2.89	inactive
19	dome (domeless)	DRSC19583	6.92	1.7	inactive
20	CG18747	DRSC15384	8.97	10.5	inactive
21	CG18747	DRSC26205	7.91	1.74	inactive
22	CG10750	DRSC02105	9.42	7.95	inactive
23	CG10750	DRSC29624	15.1	9.69	inactive
24	TBC1D23 (TBC1 domain family member 23)	DRSC00657	1.16	3.13	inactive
25	TBC1D23 (TBC1 domain family member 23)	DRSC30084	2.34	9.59	inactive
26	nur (nemuri)	DRSC01342	2.5	3.16	inactive
27	nur (nemuri)	DRSC29629	5.38	15.2	inactive
28	CG15879	DRSC08487	2.78	4.05	inactive
29	CG15879	DRSC27002	12.6	3.21	inactive
30	CG31086 + CG31323	DRSC14902	2.91	13.7	inactive
31	CG31086 + CG31323	DRSC24466	1.1	1.78	inactive
32	CG5180	DRSC15731	2.19	7.44	inactive
33	crim (crimpled)	DRSC10573	18.8	8.15	inactive
34	CG8195	DRSC07103	16.5	14.2	inactive
35	TAF1C-like	DRSC04073	5.73	5.47	inactive
36	CG17770 + Acam	DRSC14110	1.27	5.06	inactive
37	CG17770 + Acam	DRSC15264	1.18	4.14	inactive
38	CG17770 + Acam	DRSC24252	4.74	5.87	inactive
39	CG17770 + Acam	DRSC29529		14.2	inactive
